Pooled drug test results. Numbers come from NIAID ChemDB, via PubChem.

All rows: growth or infection tests; species: Varicella zoster virus; measure: EC50

a–b is a range or a potency band. ECn is the concentration giving n% inhibition of infection, replication or growth. Rows are shuffled and stem from different studies. Blank or dashed fields: not listed here.

structure | strain | cells | value
Cc1ccn2c(C3SCCS3)cnc2c1 | YS/R | HEL | >1000 µM
Nc1nc2c(ncn2COC(CO)CO)c(=O)[nH]1 | ULF PE 9/84 (TK+) | HEL | 6.2–30 µM
O=C1O/C(=C\Cn2cc(C(F)(F)F)c(=O)[nH]c2=O)C(O)=C1O | TK+ | HEL | >50 µg/mL
Nc1nc2c(ncn2[C@H]2C=C[C@@H](CO)[C@H](O)C2)c(=O)[nH]1 | YS |  | 1.2 µg/mL
Cc1cccn2c(C3OCCS3)cnc12 | OKA | HEL | >1000 µM
OC[C@H]1CC(n2cnc3c(NC4CC4)ncnc32)C[C@@H]1CO | YS | HEL | >100 µg/mL
O=c1[nH]c(=O)n([C@H]2C[C@H](O)[C@@H](CO)O2)cc1/C=C/Br | TK- | HEL | >100 µM
CC(C)Nc1ncnc2c1ncn2C1C[C@H](CO)[C@@H](CO)C1 | YS/R (TK-) | HEL | >100 µg/mL
O=C(O)P(=O)(O)O | TK- | HEL | 250 µM
O=c1[nH]c(=O)n([C@@H]2C[C@H](CO)C[C@H]2CO)cc1I | 07/1 (TK-) | HEL | >100 µg/mL
Nc1nc2c(ncn2CC(CO)CCO)c(=O)[nH]1 | TK- | HEL | >100 µM
O=C1OC(C(O)Cn2cc(C(F)(F)F)c(=O)[nH]c2=O)C(OCc2ccccc2)=C1OCc1ccccc1 | TK+ | HEL | >50 µg/mL
CCOC(=O)/C=C\C=C\[C@H]1O[C@@H](n2ccc(=O)[nH]c2=O)[C@H](O)[C@@H]1O | YS/R | HEL | 10 µM
Cc1ccn2c(C3OCCO3)cnc2c1 | Strain 07/1 | HEL | >1000 µM
CCCCCc1ccc(-c2cc3cn(C4C[C@H](F)[C@@H](CO)O4)c(=O)nc3o2)cc1 | YS (TK-) |  | >2 µM
O=C1OC(C(O)Cn2cc(F)c(=O)[nH]c2=O)C(OCc2ccccc2)=C1OCc1ccccc1 | TK+ | HEL | >50 µg/mL

The last 2 rows once more:

| structure | strain | cells | value |
|---|---|---|---|
| CCCCCc1ccc(-c2cc3cn(C4C[C@H](F)[C@@H](CO)O4)c(=O)nc3o2)cc1 | YS (TK-) |  | >2 µM |
| O=C1OC(C(O)Cn2cc(F)c(=O)[nH]c2=O)C(OCc2ccccc2)=C1OCc1ccccc1 | TK+ | HEL | >50 µg/mL |